In PubChem BioAssay AID2606 (The Scripps Research Institute Molecular Screening Center, 2010):
This is a selection; strong and weak results do not stand in their true shares. Some structures show a salt or complex split into parts, the way the source records it. Activity calls are given as the source filed them. Rule as the data show it: active = inhibition above about 38%; inactive = the rest.

The chains behind the UniProt entries cited, without tags or fusion partners.
UniProt P9WHR9, whole entry: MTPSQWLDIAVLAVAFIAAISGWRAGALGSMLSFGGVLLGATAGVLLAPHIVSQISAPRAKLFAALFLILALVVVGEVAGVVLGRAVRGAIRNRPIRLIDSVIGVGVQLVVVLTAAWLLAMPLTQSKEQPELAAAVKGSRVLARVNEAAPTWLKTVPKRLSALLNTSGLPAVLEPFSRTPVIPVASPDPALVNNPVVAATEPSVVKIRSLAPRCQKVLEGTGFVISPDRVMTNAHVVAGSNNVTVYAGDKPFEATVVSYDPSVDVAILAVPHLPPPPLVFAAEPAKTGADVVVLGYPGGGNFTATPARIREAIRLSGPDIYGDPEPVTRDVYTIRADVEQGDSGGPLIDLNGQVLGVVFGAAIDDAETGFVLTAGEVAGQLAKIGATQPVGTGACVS

What follows are compounds tested against Serine protease Rv3671c (Mycobacterium tuberculosis (strain ATCC 25618 / H37Rv)) (UniProt P9WHR9) (assay: inhibition of M. tuberculosis membrane protease Rv3671c – biochemical, fluorescence polarization, M. tuberculosis H37Rv, primary screen (AID 2606;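 also: extracellular domain of Rv3671c used as enzyme; 0% = enzyme with DMSO and 100% = no enzyme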)). Details: at 5.96 µM; hits give high values.

| Compound | inhibition |
| --- | --- |
| O=[N+]([O-])c1cc([N+](=O)[O-])c(-c2cnn(-c3ccccc3)c2)c([N+](=O)[O-])c1 | inactive: 6.69% |
| Cc1nc2ccc3ccccc3c2s1.O=[N+]([O-])c1cc([N+](=O)[O-])c(O)c([N+](=O)[O-])c1 | inactive: -0.05% |
| O=[N+]([O-])c1cc([N+](=O)[O-])c(-n2nnc3ccccc32)c([N+](=O)[O-])c1 | inactive: 7.09% |
| COc1ccccc1OP(C)(=O)Nc1c(C)cccc1C (stereo not drawn) | inactive: 1.46% |
| CN1CCCCC1COC(=O)C1(O)c2ccccc2CCc2ccccc21 (stereo not drawn) | inactive: -6.67% |
| CP(=O)(Nc1ccc(SC(F)(F)F)cc1)Oc1ccccc1 (stereo not drawn) | inactive: -6.83% |
| CCCOc1ccc(NP(C)(=O)Oc2ccc(Cl)cc2)cc1 (stereo not drawn) | inactive: -0.31% |
| O=[N+]([O-])c1cc([N+](=O)[O-])c(Nc2nnnn2CCO)c([N+](=O)[O-])c1 | inactive: -1.6% |
| CC1=C2N=C(C=C3N=C(C(C)=C4[N-][C@@](C)([C@@H]5N=C1[C@](C)(CCC(=O)NC[C@@H](C)OP(=O)([O-])O[C@H]1[C@@H](O)[C@@H](n6cnc7cc(C)c(C)cc76)O[C@@H]1CO)[C@H]5CC(N)=O)[C@@](C)(CC(N)=O)[C@@H]4CCC(N)=O)[C@@](C)(CC(N)=O)[C@@H]3CCC(N)=O)C(C)(C)[C@@H]2CCC(N)=O.[C-]#N.[Co+3] | inactive: -81.8% |
| CCOC(=O)C(CC)C1=NC(C)(C)Cc2ccccc21.O=[N+]([O-])c1cc([N+](=O)[O-])c(O)c([N+](=O)[O-])c1 (stereo not drawn) | inactive: 8.31% |
| CC1=NCCc2c1[nH]c1ccccc21.O=[N+]([O-])c1cc([N+](=O)[O-])c(O)c([N+](=O)[O-])c1 | inactive: 4.28% |
| O=C(O)c1cccc(Nc2c([N+](=O)[O-])cc([N+](=O)[O-])cc2[N+](=O)[O-])c1 | inactive: 10.3% |
| CP(=O)(Nc1cccc(Br)c1)Oc1ccccc1 (stereo not drawn) | inactive: 2.18% |
| Cc1cc(C)cc(OP(C)(=O)Nc2ccccn2)c1 (stereo not drawn) | inactive: 1.16% |
| Cc1ccc(C)c(NP(C)(=O)Oc2ccccc2)c1 (stereo not drawn) | inactive: -5.4% |
| COc1ccccc1OP(C)(=O)Nc1cccc(Br)c1 (stereo not drawn) | inactive: 2.22% |
| Cc1cc(C)cc(OP(C)(=O)Nc2ccc(C)cc2C)c1 (stereo not drawn) | inactive: 6.49% |
| CCOC(=O)c1ccc(NP(C)(=O)Oc2cc(C)cc(C)c2)cc1 (stereo not drawn) | inactive: -6.69% |
| CCN(CC)CCCOC(=O)C(O)(c1ccccc1)c1ccccc1 | inactive: -3.35% |
| CCOC(=O)c1ccc(NP(C)(=O)Oc2ccccc2)cc1 (stereo not drawn) | inactive: 0.13% |
| COc1ccccc1OP(C)(=O)Nc1ccc(C)cc1 (stereo not drawn) | inactive: -4.76% |
| Cc1ccc(NP(C)(=O)Oc2ccccc2)c(C)c1 (stereo not drawn) | inactive: 0.3% |

| Compound | inhibition |
| --- | --- |
| COc1ccccc1OP(C)(=O)Nc1cc(Cl)ccc1C (stereo not drawn) | inactive: 0.15% |
| COc1ccc(OP(C)(=O)Nc2cccc(F)c2)cc1 (stereo not drawn) | inactive: -2.6% |
| Cc1cc(C)cc(OP(C)(N)=O)c1 (stereo not drawn) | inactive: 8.8% |
| O=[N+]([O-])c1cc([N+](=O)[O-])c(Nc2cccnc2)c([N+](=O)[O-])c1 | inactive: 4.96% |
| CC(C)(C)c1ccc(OP(C)(=O)Nc2ccc(SC(F)(F)F)cc2)cc1 (stereo not drawn) | inactive: -3.45% |
| Cc1cccc(C)c1OP(C)(N)=O (stereo not drawn) | inactive: 4.81% |
| O=[N+]([O-])c1ccc2c(c1)C=Nc1ccccc1O2 | inactive: 3.29% |
| CP(=S)(Nn1cnnc1)Oc1ccccc1 (stereo not drawn) | inactive: -3.99% |
| COc1ccccc1OP(C)(=O)Nc1ccccc1 (stereo not drawn) | inactive: -5.91% |
| CP(=O)(Nc1ccccc1Br)Oc1ccccc1 (stereo not drawn) | inactive: -1.22% |
| CCOP(C)(=S)SCC(=O)NC(C)C(=O)O (stereo not drawn) | inactive: -4.73% |
| CCOC(=O)c1ccc(NP(C)(=O)Oc2ccc(OC)cc2)cc1 (stereo not drawn) | inactive: -6.32% |
| O=[N+]([O-])c1cc([N+](=O)[O-])c(O)c([N+](=O)[O-])c1.c1ccc(Oc2ccncc2)cc1 | inactive: 5.37% |
| CP(=O)(Nc1ccccn1)Oc1ccc(Cl)cc1 (stereo not drawn) | inactive: -0.78% |
| Cc1cccc(C)c1OP(C)(=O)Nc1ccc(SC(F)(F)F)cc1 (stereo not drawn) | inactive: -26% |
| CP(=O)(Nc1ccc(SC(F)(F)F)cc1)Oc1ccc(Cl)cc1 (stereo not drawn) | inactive: 6.39% |
| CP(=O)(Oc1ccccc1)OC(c1ccccc1)C(F)(F)F (stereo not drawn) | inactive: 7.68% |
| CCc1ccc(OP(C)(=O)N2CCN(c3ccc([N+](=O)[O-])cc3)CC2)cc1 (stereo not drawn) | inactive: 1.82% |
| CP(=O)(NC(=O)Nc1ccccc1)Oc1ccccc1 (stereo not drawn) | inactive: -7.71% |
| Cc1cc(C)cc(OP(C)(=O)Nc2ccc(SC(F)(F)F)cc2)c1 (stereo not drawn) | inactive: -6.88% |
| CP(=O)(Nc1ccc(Cl)cc1)Oc1ccc(F)cc1 (stereo not drawn) | inactive: 6.98% |
| CC(C)(C)c1ccc(OP(C)(=O)O)cc1 | inactive: -0.08% |

| Compound | inhibition |
| --- | --- |
| COc1ccccc1OP(C)(=O)Nc1ccccc1Br (stereo not drawn) | inactive: -1.53% |
| CN(C)C(=O)c1c([N+](=O)[O-])cc([N+](=O)[O-])cc1[N+](=O)[O-] | inactive: -22.5% |
| CCN(CC)CC(O)COC(=O)C(O)(c1ccccc1)C1CCCCC1 (stereo not drawn) | inactive: -0.95% |
| COc1ccc(OP(C)(=O)Nc2ccc(Br)cc2)cc1 (stereo not drawn) | inactive: 2.69% |
| CP(=O)(Oc1ccccc1)N1CCOC1=O (stereo not drawn) | inactive: 5.32% |
| CCc1ccc(OP(C)(=O)Nc2cccnc2)cc1 (stereo not drawn) | inactive: 3.52% |
| COc1ccccc1OP(C)(=O)Nc1c(C)n(C)n(-c2ccccc2)c1=O (stereo not drawn) | inactive: -3.62% |
| O=C(OCCCN1CCCC1)C(O)(c1ccccc1)C1CCCCC1 (stereo not drawn) | inactive: 2.81% |
| Nc1ccc2c(ccc3cccnc32)n1.O=[N+]([O-])c1cc([N+](=O)[O-])c(O)c([N+](=O)[O-])c1 | inactive: 2.38% |
| CP(=O)(OC12CC3CC(CC(C3)C1)C2)OC12CC3CC(CC(C3)C1)C2 | inactive: 2.76% |
| CCOC(=O)c1ccc(NP(C)(=O)Oc2ccc(Cl)cc2)cc1 (stereo not drawn) | inactive: -1.59% |
| Cc1nc2ccc3ccccc3c2o1.O=[N+]([O-])c1cc([N+](=O)[O-])c(O)c([N+](=O)[O-])c1 | inactive: -16.4% |
| CP(=O)(OCCOc1ccccc1)OCCOc1ccccc1 | inactive: 5.75% |
| CP(=O)(Nc1ccc(Cl)cc1Cl)Oc1ccccc1 (stereo not drawn) | inactive: 3.55% |
| Cc1cc(C)cc(OP(C)(=O)Nc2cccc(C(F)(F)F)c2)c1 (stereo not drawn) | inactive: -11.8% |
| COc1ccc(OP(C)(=O)Nc2ccccc2Br)cc1 (stereo not drawn) | inactive: -3.02% |
| COc1ccccc1OP(C)(=O)Nc1ccc(C)c(C)c1 (stereo not drawn) | inactive: 4.45% |
| O=[N+]([O-])c1cc([N+](=O)[O-])c(Nc2ccccn2)c([N+](=O)[O-])c1 | inactive: -36.5% |
| Cc1c(NP(C)(=O)Oc2ccc(C(C)C)cc2)c(=O)n(-c2ccccc2)n1C (stereo not drawn) | inactive: -2% |
| CCc1ccc(OP(C)(=O)O)cc1 | inactive: 6.65% |
| CP(=O)(Nc1ccccn1)Oc1ccccc1 (stereo not drawn) | inactive: 0.33% |
| COc1ccccc1OP(C)(=O)Nc1ccc(C)cc1C (stereo not drawn) | inactive: -2.91% |

| Compound | inhibition |
| --- | --- |
| COc1ccccc1OP(C)(=O)Nc1ccc(Br)cc1 (stereo not drawn) | inactive: 2.28% |
| CN(C)CCOC(=O)C(O)(c1ccccc1)C1CCCC1 (stereo not drawn) | inactive: 3.2% |
| COc1ccc(OP(C)(=O)Nc2ccccn2)cc1 (stereo not drawn) | inactive: -7.2% |
| O=C(OCCN1CCN(CCOCc2ccccc2)CC1)C(O)(c1ccccc1)c1ccccc1 | inactive: -6.73% |
| O=C(OC1CN2CCC1CC2)c1ccc([N+](=O)[O-])cc1 (stereo not drawn) | inactive: 1.32% |
| COc1ccc2c(c1O)-c1c(O)c(OC)cc3c1[C@H](C2)[N+](C)(C)CC3.O=[N+]([O-])c1cc([N+](=O)[O-])c([O-])c([N+](=O)[O-])c1[O-] | inactive: -3.49% |
| CC(C)c1ccc(OP(C)(=O)Nc2ccc(SC(F)(F)F)cc2)cc1 (stereo not drawn) | inactive: 0.4% |
| CP(=O)(Nc1ccccc1F)Oc1ccccc1 (stereo not drawn) | inactive: 1.02% |
| CCN(CC)CCCOC(=O)C(O)(c1ccccc1)C1CCCCC1 (stereo not drawn) | inactive: 4.12% |
| O=[N+]([O-])c1cc([N+](=O)[O-])c(OC2CCCCC2O)c([N+](=O)[O-])c1 (stereo not drawn) | inactive: 2.28% |
| CCCCCOc1ccc(NP(C)(=O)Oc2ccc(Cl)cc2Cl)cc1 (stereo not drawn) | inactive: 2.08% |
| CP(=O)(Nc1ccccc1)Oc1ccc(F)cc1 (stereo not drawn) | inactive: 1.67% |
| COc1ccc(OP(C)(=O)Nc2ccc(SC(F)(F)F)cc2)cc1 (stereo not drawn) | inactive: -5.29% |
| CCOC(=O)c1ccc(NP(C)(=O)Oc2ccc(F)cc2)cc1 (stereo not drawn) | inactive: -7.88% |
| O=[N+]([O-])c1cc([N+](=O)[O-])c(NCC2CCS(=O)(=O)C2)c([N+](=O)[O-])c1 (stereo not drawn) | inactive: -5.28% |
| COc1ccc(OP(C)(=O)Nc2cccc(Br)c2)cc1 (stereo not drawn) | inactive: -13.9% |
| COc1ccc(NP(C)(=O)Oc2ccccc2OC)cc1 (stereo not drawn) | inactive: -4.04% |
| CN(C)CCOC(=O)C(O)(c1ccccc1)C1CCCCC1 (stereo not drawn) | inactive: -0.3% |
| CP(=O)(Nc1ccc2c(c1)OCCO2)Oc1ccccc1 (stereo not drawn) | inactive: -5.65% |
| Cc1ccccc1NP(C)(=O)Nc1ccccc1C | inactive: 0.73% |
| CP(=O)(Nc1ccc(SC(F)(F)F)cc1)Oc1ccc(F)cc1 (stereo not drawn) | inactive: -3% |
| CCOP(C)(=S)SCC(=O)NC(C)(CC)C(=O)O (stereo not drawn) | inactive: -9.64% |
